PubChem BioAssay AID504761 | Drosophila RNAi Screening Center – 2011

Purpose: 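Insect host genes that dengue virus relies on to spread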 (primary screen)
System: D.Mel-2 cells from Drosophila
Reagent: long dsRNA against Drosophila genes
Treatment: infection with dengue virus type 2; dose and infection time not stated
Detection: 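Per well on two replicate plates, imaging gave the percent of cells positive for viral envelope protein, ranked by infection, and a nuclear count of cells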
Scale: infection score: higher = more virus-infected cells; cell count: higher = more cells in the well
Rule for the call: 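Low infection ranks in the two replicates (chance level up to 0.065) followed by a retest with a 1.5-fold or larger significant decrease, p below 0.05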
Calls: active = confirmed: knock-down lowers infection; inactive = not picked or not confirmed
The deposit covers about 22,000 reagents; below is an unselected part of those with a known target gene and a result. Of all reagents, 116 (0.52%) were called active. 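Calls depend on retest data that are not deposited; infection was ranked per plate without normalising between plates; the unit of the infection score is not given.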 Raw values are not corrected between plates. Entries without a mark were called inactive. The numbers tell different reagents against one gene apart. A plus sign joins genes that one reagent is predicted to hit. Not given: the amount of reagent, the time to read-out.

infection score, replicate 1	infection score, replicate 2	cell count, replicate 1	cell count, replicate 2	gene	dsRNA no.
27.7	10	6384	6024	key (GeneID 37967)	1
4.01	3.56	6361	6689	mora (GeneID 42874)	1
4.12	9.14	6292	6599	Tep2 (GeneID 34044)	1
5.32	5.68	6338	6604	Tep2 (GeneID 34044)	2
4.25	3.07	6357	6839	CG13658 (GeneID 43055)	1
10.4	9.31	5893	5369	CG13658 (GeneID 43055)	2
5.03	5.04	6502	6253	tplus3b + tplus3a	1
18	11.5	5217	7195	drn (GeneID 41114)	1
2.21	1.93	6962	6939	Cpr31A (GeneID 2768918)	1
15.5	23.2	5621	4328	Cpr31A (GeneID 2768918)	2
16.6	16.6	5623	5842	alpha-Man-IIb (GeneID 41913)	1
2.41	6.33	6152	5606	alpha-Man-IIb (GeneID 41913)	2
3.87	3.24	1525	1761	Myb (GeneID 32543)	1
3.58	6.38	5727	6674	CG9109 (GeneID 33844)	1
1.72	1.48	6380	6020	CG9109 (GeneID 33844)	2
13.2	11.9	4907	6029	Rbbp5 (GeneID 40239)	1
1.34	3.49	6172	5730	Cpr72Eb (GeneID 39815)	1
1.81	20.3	6737	6380	Rab3GAP1 (GeneID 33338)	1
1.81	4.01	6502	6456	Rab3GAP1 (GeneID 33338)	2
0.24	16.1	422	6156	Rab3GAP1 (GeneID 33338)	3
3.26	4.01	6624	6465	CG13731 (GeneID 39938)	1
3.4	5	6297	6804	CG13731 (GeneID 39938)	2
2.45	5.76	6783	6802	CG11019 (retired record) (GeneID 50472)	1
2.79	11.3	5869	3152	CG11019 (retired record) (GeneID 50472)	2
19.9	15.3	6342	5215	Dph1 (GeneID 39317)	1
1.68	1.77	5839	6052	CG30340 (GeneID 246550)	1
3.52	2.99	7155	7054	Gr58c (GeneID 37501)	1
1.71	1.28	5500	6466	CG12268 (GeneID 42833)	1
	2.04	260	637	CG12268 (GeneID 42833)	2
2.06	1.85	5785	5728	CG14298 (GeneID 42259)	1
7.46	3.48	7020	6919	CG10102 (retired record) (GeneID 36596)	1
3.75	2.11	5766	6253	NijA (GeneID 39215)	1
3.71	9.99	5986	6727	Inos (GeneID 35671)	1
16.5	13.4	6428	6188	Inos (GeneID 35671)	2
2.75	1.3	6294	6482	Rnp4F (GeneID 31448)	1
1.49	3.67	5960	6287	Rnp4F (GeneID 31448)	2
5.13	15.2	6261	6518	CG10177 (GeneID 42772)	1
14.5	3.7	6355	6630	CG10177 (GeneID 42772)	2
1.17	7.62	6159	5736	CG32407 (GeneID 38667)	1

Single entries from the entries so far:
Under “infection score, replicate 1”, Rab3GAP1 (GeneID 33338) #2 has 1.81
Under “infection score, replicate 1”, CG30340 (GeneID 246550) shows 1.68
Under “infection score, replicate 1”, key (GeneID 37967) has 27.7
